Molecular target: T1, WT HIV-1 RT (Human immunodeficiency virus type 1 group M subtype B, UniProt P03366)
T1 construct: viral nucleotides (dNTPs) and the HIV-1 RT enzyme in an incubation buffer; purchased Roche
Assay: HIV-1 RT inhibition assay (Roche kit, ELISA)
Type: biochemical
Description: An assay kit for HIV-1 reverse transcriptase (RT) from Roche was utilized to assess RT inhibition. The kit provided all necessary components for the RT reaction, and the enzyme-linked immunosorbent assay (ELISA) methodology for the inhibition assay was executed according to the kit’s instructions. […] Unbound dNTPs were washed away, and an anti-[…] (DIG)-POD working solution was introduced. […] Excess anti-DIG-POD was removed, and a peroxidase substrate (ABTS) solution was applied to the MTPs. […] The percentage of the inhibitory activity of the RT inhibitors was calculated by formula, as given below:
% Inhibition = [O.D. value with RT but without inhibitors − O.D. value with RT and inhibitors]/[O.D. value with RT […] − O.D. value without RT and inhibitors].

Question: Cc1cc(C#N)cc(C)c1Oc1nc(Nc2ccc(C#N)cc2)nc(N)c1Br [ETR, etravirine, reference compound] was tested. Which IC50 did it give?
Answer: 18 ± 2 nM

Source: publication PMC11354745, “Discovery of Novel Amino Acids (Analogues)-Substituted Thiophene[3,2-d]pyrimidine Derivatives as Potent HIV-1 Non-Nucleoside Reverse Transcriptase Inhibitors: Design, Synthesis, and Biological Evaluation” (International Journal of Molecular Sciences, 2024)
